Anti-infective test results gathered from many reports (values: NIAID ChemDB through PubChem).

Shared fields: growth or infection tests; organism: Aspergillus fumigatus; endpoint: MIC100

MIC50, MIC90 and the like: level of inhibition, or share of isolates inhibited. Conditions beyond the fields shown may differ between rows. An empty or dashed field is not shown.

| smiles | strain or isolate | method | setting | value |
|---|---|---|---|---|
| CC1/C=C/C=C/C=C/C=C/C(O[C@@H]2O[C@H](C)[C@@H](O)[C@H](N)[C@@H]2O)CC2OC(O)(CC(O)CC(O)C/C=C/C(=O)OC1C)CC(O)C2C(=O)O | CGMCC 3.3552 | broth dilution |  | 6.25 µg/mL |
| Cc1ccccc1OCc1n[nH]c(=S)n1N1C(=O)CSC12CCc1ccccc12 |  |  |  | 12.5 µg/mL |
| Cc1ccc(-c2n[nH]c(COc3ncnc4ccccc34)n2)cc1 | MTCC 343 |  |  | 25 µg/mL |
| O=C1CSC2(CCc3ccccc32)N1n1c(-c2ccc(Cl)cc2)n[nH]c1=S |  |  |  | 12.5 µg/mL |
| C=CC(C)(O)CCCC(C)CCCC(C)CCCC(C)C | ATCC 16404 | broth dilution |  | 125 µg/mL |
| O=C1CSC2(CCc3ccccc32)N1n1c(-c2cccnc2)n[nH]c1=S |  |  |  | 12.5 µg/mL |
| COc1cc(-c2n[nH]c(COc3nc(C(F)(F)F)nc4ccccc34)n2)cc(OC)c1OC | MTCC 343 |  |  | 12.5 µg/mL |
| C[C@H]1[C@H](O)[C@@H](C)/C=C/C=C/C=C/C=C/C=C/C=C/C=C/[C@H](O[C@@H]2O[C@H](C)[C@@H](O)[C@H](N)[C@@H]2O)C[C@@H]2O[C@](O)(C[C@@H](O)C[C@@H](O)CC[C@H](O)[C@@H](O)C[C@@H](O)CC(=O)O[C@H]1C)C[C@H](O)[C@H]2C(=O)O | ATCC 204305 | broth dilution | 24 h | 0.5 µg/mL |
| C=CC(C)(O)CC/C=C(\C)CCC=C(C)C | ATCC 16404 | broth dilution |  | 62.5 µg/mL |
| CC(C)=CCc1ccc(C2C(=O)O/C(=C\c3ccc(O)cc3)C2C)cc1O |  | broth dilution |  | 17.06 µg/mL |
| c1coc(-c2n[nH]c(COc3ncnc4ccccc34)n2)c1 | MTCC 343 |  |  | 12.5 µg/mL |
| CCC(C)n1ncn(-c2ccc(N3CCN(c4ccc(OC[C@H]5CO[C@](Cn6cncn6)(c6ccc(Cl)cc6Cl)O5)cc4)CC3)cc2)c1=O | MRCM 32208 | broth dilution / visual reading |  | >8 µg/mL |
| Oc1ccc(-c2n[nH]c(COc3ncnc4ccccc34)n2)cc1 | MTCC 343 |  |  | 25 µg/mL |
| O=C1CSC2(CCc3ccccc32)N1n1c(COc2ccc(Cl)cc2Cl)n[nH]c1=S |  |  |  | 25 µg/mL |
| FC(F)(F)c1nc(OCc2nc(-c3ccc(Br)cc3)n[nH]2)c2ccccc2n1 | MTCC 343 |  |  | 12.5 µg/mL |
| CCC1/C=C/C=C/C=C/C=C/C(OC2OC(C)C(O)C(N)C2O)CC2OC(O)(CC(O)CC(O)C/C=C/C(=O)OC1C)CC(O)C2C(=O)O | ATCC 3.13 | broth dilution |  | 3.13 µg/mL |

For reference, 2 entries again:

smiles	strain or isolate	method	setting	value
FC(F)(F)c1nc(OCc2nc(-c3ccc(Br)cc3)n[nH]2)c2ccccc2n1	MTCC 343			12.5 µg/mL
CC1/C=C/C=C/C=C/C=C/C(O[C@@H]2O[C@H](C)[C@@H](O)[C@H](N)[C@@H]2O)CC2OC(O)(CC(O)CC(O)C/C=C/C(=O)OC1C)CC(O)C2C(=O)O	CGMCC 3.3552	broth dilution		6.25 µg/mL